Measured data: PubChem BioAssay AID1259414 (Drosophila RNAi Screening Center, 2018)

Assay: 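Genome-wide screen for host control of endosymbiont load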 (primary screen)
Cells: Drosophila JW18 cells infected with Wolbachia
Reagents: long dsRNA against Drosophila genes, 0.25 µg dsRNA per well of a 384-well plate
Timing: 5 days
Challenge: cells persistently infected with Wolbachia before knock-down; no added drug
Read-out: 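Imaged fluorescence in situ signal for Wolbachia 23S rRNA per DAPI-counted host cell, given as a robust z-score within each plate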
Scale: Wolbachia per cell robust z: higher = more Wolbachia per host cell than the plate typical
Hit rule: 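Hit when robust z is 1.5 or more, or -1.5 or less, in at least two of three replicates; excludes dsRNAs with several or no targets, genes not expressed in JW18 and well A1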
The screen tested about 24,000 reagents; this is an unselected part of those that have a named target and a result. In the full data, about 1,210 (5%) were called active. 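Inactive calls also include excluded dsRNAs with several or no targets, genes unexpressed in JW18, and well A1, regardless of score.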 Unmarked entries are inactive. Reagents against one gene are numbered here. Names joined by + are all predicted targets of the reagent.

no.	target gene	dsRNA no.	Wolbachia per cell robust z, rep 1	Wolbachia per cell robust z, rep 2	Wolbachia per cell robust z, rep 3
1	eIF2D (GeneID 64874)	1	-2.28	-4.68	-1.49
2	CG2120 (GeneID 31737)	1	0.0946	-0.892	-3.6
3	CG2120 (GeneID 31737)	2	1.2	0.13	1.96
4	CG32751 (GeneID 318189)	1	-0.105	0.556	-0.498
5	gwl (GeneID 45969)	1	0.771	0.105	1.81
6	Rhau (GeneID 35339)	1	0.334	-0.284	-1.3
7	Rhau (GeneID 35339)	2	0.173	0.284	1.86
8	CG4592 (GeneID 34317)	1	0.0746	0.672	0.221
9	Nf-YA (GeneID 39091)	1	-2.14	0.638	0.284
10	CG5327 + CG5493	1	0.707	0.0421	0.776
11	MICU1 (GeneID 33999)	1	0.131	-0.135	-0.444
12	stw (GeneID 35494)	1	0.58	0.71	-6.03
13	stw (GeneID 35494)	2	-0.783	1.37	0.622
14	stw (GeneID 35494)	3	0.68	0.483	-0.504
15	stw (GeneID 35494)	4	0.0304	-0.323	0.63
16	mt:ND1 (GeneID 19893558)	1	0.746	-1.85	-0.682
17	PIG-Wb (GeneID 38220)	1	-0.22	-1.13	-3.75
18	CG12836 (GeneID 35630)	1	-2.23	-0.535	-0.343
19	fusl (GeneID 33765)	1	-1.14	-7.48	-0.552
20	fusl (GeneID 33765)	2	1.77	0.384	0.191
21	CG4390 (GeneID 42396)	1	1.87	1.22	-0.574
22	CG4390 (GeneID 42396)	2	-0.807	-0.718	0.282
23	CG33267 (GeneID 2768969)	1	-0.0574	-0.726	-0.464
24	Snm1 (GeneID 40669)	1	-0.994	-1.04	-0.896
25	CycY (GeneID 34593)	1	-0.207	-1.96	0.307
26	CycY (GeneID 34593)	2	0.881	-0.932	2.02
27	CycY (GeneID 34593)	3	-0.158	-2.1	-0.863
28	nan (GeneID 39571)	1	-1.97	-1.51	-10.9
29	Ccs (GeneID 46035)	1	-0.0711	0.338	0.369
30	Oct-TyrR (GeneID 42452)	1	0.992	0.767	-0.808
31	CG13653 (GeneID 43025)	1	0.163	0.682	-1.98
32	CG13837 (GeneID 42720)	1	-3.95	1.23	1.87
33	CG46301 (GeneID 34829)	1	-2.18	-5.39	-2.51
34	CG46301 (GeneID 34829)	2	-0.0899	-0.442	0.0279
35	CG46301 (GeneID 34829)	3	-0.25	-0.427	-0.161
36	CG46301 (GeneID 34829)	4	-1.23	0.27	-1.25
37	Mal-B1 (GeneID 34597)	1	-6.68	0.46	1.99
38	Mal-B1 (GeneID 34597)	2	0.769	-0.103	1.07
39	U2af38 (GeneID 33201)	1	0.567	-7.21	2.44
40	U2af38 (GeneID 33201)	2	0.715	1.36	2.52
41	Rpn7 (GeneID 42641)	1	3.22 (active)	3.7	2.02
42	Rpn7 (GeneID 42641)	2	1.36	1.62	1.08
43	Cdc23 (GeneID 35315)	1	-0.328	-1.01	0.0931
44	Cad96Ca (GeneID 43026)	1	0.692	-2.03	-0.212
45	Cad96Ca (GeneID 43026)	2	0.918	0.218	-0.198
46	CG2126 (GeneID 43748)	1	0.786	0.899	-1.89

Records above called active (1):
target gene	dsRNA no.	Wolbachia per cell robust z, rep 1	Wolbachia per cell robust z, rep 2	Wolbachia per cell robust z, rep 3
Rpn7 (GeneID 42641)	1	3.22 (active)	3.7	2.02
